According to patent US9668480B2, “Method for treating plants against fungi resistant to fungicides using carboxamide or thiocarboxamide derivatives” (priority 2012, dated 2017):

Tested on: Botrytis cinerea boscalid-resistant strains with SDHB_P225H, F substitutions
Assay: Sensitivity assay in microtiter plate, resistance factor of boscalid-resistant field strains versus Bo47 WT
Assay type: cell-based
Method: Four to five strains with SDHB_P225H, F substitutions were retained for subsequent sensitivity assays in microtiter plate. IC50 of test compounds were determined and resistance factors (RF) calculated as the ratio of IC50 mutant/IC50 WT (Bo47). […] Strains giving a RF below 10 were considered sensitive, moderately resistant when RF was comprised between 10 and 50, resistant above 50.

[1] = mutation P225F, BOTRCI strain 08BC1554
[2] = mutation P225F, BOTRCI strain 08BC1557
[3] = mutation P225F, BOTRCI strain 08BC1558
[4] = mutation P225F, BOTRCI strain 09BC2615
[5] = mutation P225H, BOTRCI strain 09BC2640
[6] = mutation P225H, BOTRCI strain 09BC2648
[7] = mutation P225H, BOTRCI strain 09BC2649
[8] = mutation P225H, BOTRCI strain 09BC2652

Compound | resistance factor (RF), ratio of IC50 mutant/IC50 WT (Bo47) [1] | resistance factor (RF), ratio of IC50 mutant/IC50 WT (Bo47) [2] | resistance factor (RF), ratio of IC50 mutant/IC50 WT (Bo47) [3] | resistance factor (RF), ratio of IC50 mutant/IC50 WT (Bo47) [4] | resistance factor (RF), ratio of IC50 mutant/IC50 WT (Bo47) [5] | resistance factor (RF), ratio of IC50 mutant/IC50 WT (Bo47) [6] | resistance factor (RF), ratio of IC50 mutant/IC50 WT (Bo47) [7] | resistance factor (RF), ratio of IC50 mutant/IC50 WT (Bo47) [8]
O=C(Nc1ccccc1-c1ccc(Cl)cc1)c1cccnc1Cl [Boscalid, reference compound] | >171 | >171 | >171 | >171 | >171 | >171 | >171 | >171
CC(C)c1ccccc1CN(C(=O)c1c(C(F)F)nn(C)c1F)C1CC1 [Compound A1, N-cyclopropyl-3-(difluoromethyl)-5-fluoro-N-(2-isopropylbenzyl)-1-methyl-1H-pyrazole-4-carboxamide] | 2.4 | 1.8 | 3.0 | 1.6 | 1.3 | 0.9 | 1.1 | 1.1
CC(C)c1ccc(Cl)cc1CN(C(=O)c1c(C(F)F)nn(C)c1F)C1CC1 [Compound A5, N-(5-chloro-2-isopropylbenzyl)-N-cyclopropyl-3-(difluoromethyl)-5-fluoro-1-methyl-1H-pyrazole-4-carboxamide] | 1.4 | 1.3 | 1.6 | 0.8 | 1.3 | 0.8 | 0.9 | 1.0
Cn1nc(C(F)F)c(C(=O)N(Cc2c(C(F)(F)F)ccc(Cl)c2F)C2CC2)c1F [Compound A18, N-[3-chloro-2-fluoro-6-(trifluoromethyl)benzyl]-N-cyclopropyl-3-(difluoromethyl)-5-fluoro-1-methyl-1H-pyrazole-4-carboxamide] | 0.4 | 0.3 | 0.5 | 0.4 | 0.4 | 0.4 | 0.5 | 0.3
